Pooled drug test results. Numbers come from NIAID ChemDB, via PubChem.

All rows: growth or infection tests; organism: HIV-1; cells: CEM; measure: EC50

Blank or dashed fields: not listed here. a–b is a range or a potency band. Rows are shuffled and stem from different studies. ECn is the concentration giving n% inhibition of infection, replication or growth.

compound,strain,changes,read by,value
CN(C)c1ncnc2c1ncn2[C@@H]1O[C@H](CO[Si](C)(C)C(C)(C)C)C2(OS(=O)(=O)C=C2N)[C@H]1O[Si](C)(C)C(C)(C)C,IIIB,-,syncytia,0.15 µg/mL
O=C(O)c1ccc2ccc(/C=C/c3ccc([N+](=O)[O-])cc3)nc2c1O,-,-,ELISA,>43 µM
Cc1ccnc(N2C(=O)CSC2c2c(Cl)cccc2Cl)n1,-,RT-E138K,cytopathic effect,0.05 µM
O=C(O)c1ccc2ccc(/C=C/c3ccsc3)nc2c1O,-,-,ELISA,>85 µM
Cc1cn([C@H]2C[C@H](N=[N+]=[N-])[C@@H](CO)O2)c(=O)[nH]c1=O,IIIB,-,cytopathic effect,<1 µM
Cc1cn([C@@H]2O[C@H](CO[Si](C)(C)C(C)(C)C)[C@@]3(OS(=O)(=O)C=C3N)[C@H]2O[Si](C)(C)C(C)(C)C)c(=O)[nH]c1=O,IIIB TIBO R82913 STR-B02 (RT L100I E138K),RT-L100I E138K,syncytia,3.5 µM
Cc1cn(COC(CN)CO[Si](C)(C)C(C)(C)C(C)C)c(=O)[nH]c1=O,-,-,-,0.05–100 µM
CC(C)(C)[Si](C)(C)OC[C@H]1O[C@@H](n2cnc3[nH]c(=O)[nH]c(=O)c32)[C@H](O[Si](C)(C)C(C)(C)C)C12OS(=O)(=O)C=C2N,IIIB,-,syncytia,0.08 µg/mL
CCn1c(=O)c(C)cn([C@@H]2O[C@H](CO[Si](C)(C)C(C)(C)C)C3(OS(=O)(=O)C=C3N)[C@H]2O[Si](C)(C)C(C)(C)C)c1=O,IIIB TSAO-T(RT-E138K),RT-E138K,syncytia,>50 µM
CCOCn1c(Cc2cc(C)cc(C)c2)c(CC)c(=O)[nH]c1=O,IIIB,-,syncytia,0.003 ± 0.001 µg/mL
Nc1ncnc2c1ncn2CCOCP(=O)(O)O,IIIB-TIBO(0.5)(RT-L100I),RT-L100I,syncytia,7.5 µM
O=C1CN=C(c2ccc[nH]2)c2cc(Cl)ccc2N1,IIIB/LAI,-,antigen,0.4 µM
COc1cc(C)nc(N2C(=O)CSC2c2c(Cl)cccc2Cl)n1,-,RT-L100I,cytopathic effect,0.38 µM
Nc1ccn([C@H]2CC[C@@H](CO)O2)c(=O)n1,IIIB,-,syncytia,0.035 ± 0.007 µM
O=C(Nc1cc(C(F)(F)F)cc(C(F)(F)F)c1)c1ccccc1SSc1ccccc1C(=O)Nc1cc(C(F)(F)F)cc(C(F)(F)F)c1,-,-,cytopathic effect / XTT,>3.6 µM
Cc1cn([C@H]2C=C[C@@H](CO)O2)c(=O)[nH]c1=O,LAV,-,p24,0.1 µM
CCN1C(=O)N(Cc2ccccc2)S(=O)(=O)c2cscc21,IIIB,-,syncytia,2.8 µM
CC(C)(C)[Si](C)(C)OC[C@H]1O[C@@H](n2cnc3nc[nH]c(=O)c32)[C@H](O[Si](C)(C)C(C)(C)C)C12OS(=O)(=O)C=C2N,IIIB,-,syncytia,0.07 µg/mL
Cc1occc1C(=S)Nc1ccc(Cl)c(/C=N/OC(C)(C)C)c1,IIIB,RT-Y181C,p24,0.075 µg/mL
Nc1nc2c(ncn2[C@H]2CC[C@@H](CO)O2)c(=O)[nH]1,IIIB,-,syncytia,1.1 ± 0.28 µM
CC[C@H]1C(=O)Nc2ccc(F)cc2N1C(=O)OC(C)C,IIIB WT,-,cytopathic effect,0.0036 µM
O=C(O)COc1cc(OCC(=O)O)c2cc1C(c1ccc(F)cc1)c1cc(c(OCC(=O)O)cc1OCC(=O)O)C(c1ccc(F)cc1)c1cc(c(OCC(=O)O)cc1OCC(=O)O)C(c1ccc(F)cc1)c1cc(c(OCC(=O)O)cc1OCC(=O)O)C2c1ccc(F)cc1,IIIB,-,syncytia,≥20 µg/mL
CCOC(=O)CCNC(=O)c1ccccc1SSc1ccccc1C(=O)NCCC(=O)OCC,-,-,cytopathic effect / XTT,>40 µM
Nc1ncnc2c1ncn2[C@H]1C=C[C@@](CO)(CCP(=O)(O)O)C1,-,-,-,8.61 µM
NC[C@H]1O[C@H](O[C@H]2[C@H](O)[C@@H](O)[C@H](N)C[C@@H]2N)[C@H](N)[C@@H](O)[C@@H]1O,S1,-,luciferase,>5 µM
Cn1cnc2ncn([C@@H]3O[C@H](CO[Si](C)(C)C(C)(C)C)C4(OS(=O)(=O)C=C4N)[C@H]3O[Si](C)(C)C(C)(C)C)c2c1=O,IIIB,-,syncytia,0.05 µg/mL
Cc1ccnc2c1NC(=O)c1cccnc1N2C1CC1,Q-1 (RT T139K Y181C Y188D/Y),RT-T139K Y181C Y188D/Y,cytopathic effect,≥4 µg/mL
Cc1cn([C@@H]2O[C@H](CO[Si](C)(C)C(C)(C)C)C3(OS(=O)(=O)C=C3N)[C@H]2O[Si](C)(C)C(C)(C)C)c(=O)n(C)c1=O,IIIB,RT-V106A,p24,2.2 µg/mL
CN1C(=O)N(Cc2ccccc2)S(=O)(=O)c2cscc21,-,RT-L100I,syncytia,13 µM
Cc1cc(C)nc(N2C(=O)CSC2c2c(Cl)cccc2Cl)n1,-,RT-Y181C,cytopathic effect,2.54 µM
Nc1ncnc2c1ncn2CCOCP(O)(O)=S,IIIB,-,-,5.5 µM
O=C(Nc1ccccc1O)c1ccccc1SSc1ccccc1C(=O)Nc1ccccc1O,-,-,cytopathic effect / XTT,>10 µM
Cc1ccnc2c1NC(=O)c1cccnc1N2C1CC1,IIIB-BHAP)(0.1)(RT-L100I,RT-L100I,syncytia,0.06 µg/mL
[B-][P@](=O)(OC[C@H]1O[C@@H](n2cc(C)c(=O)[nH]c2=O)C[C@@H]1N=[N+]=[N-])OP(=O)(O)C(F)(F)P(=O)(O)O,-,-,-,1.2 µM
CC(C)=CCN1Cc2cc(Cl)cc3[nH]c(=S)n(c23)C[C@@H]1C,IIIB-TSAO-m3T(10)(RT-Y181C),RT-Y181C,syncytia,0.3 µg/mL
CC(C)=CCN1Cc2cc(Cl)cc3[nH]c(=S)n(c23)C[C@@H]1C,IIIB,RT-V106A,p24,0.5 µg/mL
CCc1cc(NCc2nc3c(Cl)ccc(Cl)c3o2)c(=O)[nH]c1C,IIIB,-,syncytia,0.007 ± 0.003 µg/mL
Nc1nc2c(ncn2C2CC(CO)C2)c(=O)[nH]1,IIIB,-,cytopathic effect / XTT,230 µM
COc1ccc(COCC(COCc2ccccc2)OCSc2ccccc2)cc1,-,-,-,0.05–100 µM
Cc1cn([C@H]2C=C[C@@H](COP(=O)(O)OP(=O)(O)OP(=O)(O)O)O2)c(=O)[nH]c1=O,LAI,-,cytopathic effect / MTT,1 µM
Cc1cn([C@@H]2O[C@H](CO)[C@@H](N=[N+]=[N-])[C@@H]2F)c(=O)[nH]c1=O,-,-,p24,>100 µM
Cc1cn(COC(CO)CN=[N+]=[N-])c(=O)[nH]c1=O,-,-,-,0.05–100 µM
O=c1[nH]cnc2c1ncn2[C@H]1CC[C@@H](CO)O1,IIIB-Nevirapine(1.0)(RT-Y181C),RT-Y181C,syncytia,10 µM
Cc1cn([C@H]2C=C[C@@H](COP3(=O)Oc4cccc(Cl)c4C(C)O3)O2)c(=O)[nH]c1=O,-,-,-,0.2 µM
Nc1ncnc2c1ncn2CC(CF)OCP(=O)(O)O,IIIB TSAO-T(RT-E138K),RT-E138K,syncytia,4 µM
Cc1cn([C@H]2C[C@H](N=[N+]=[N-])[C@@H](COP(=O)(O)OP(=O)(O)OP(=O)(O)O)O2)c(=O)[nH]c1=O,LAI,-,-,0.1 µM
COc1ccc2c(c1)N(C(=O)OC(C)C)[C@@H](CSC)C(=S)N2,IIIB,RT-K103N,p24,0.003 µg/mL
CC(C)Nc1cccnc1N1CCN(C(=O)c2cc3cc(NS(C)(=O)=O)ccc3[nH]2)CC1,NNRTI-resistant,RT-V106A,cytopathic effect,0.1 µM
CC(C)[C@H](NC(=O)N(C)Cc1ccccn1)C(=O)N[C@@H](Cc1ccccc1)[C@H](O)[C@H](O)[C@H](Cc1ccccc1)NC(=O)[C@@H](NC(=O)N(C)Cc1ccccn1)C(C)C,RF,-,cytopathic effect / XTT,0.05 µM
Cc1cn([C@H]2C=C[C@@H](COP3(=O)OCc4ccc5ccccc5c4O3)O2)c(=O)[nH]c1=O,-,-,-,0.11 µM
N#CCN1C(=O)N(Cc2ccccc2)S(=O)(=O)c2cscc21,-,RT-L100I,syncytia,7.8 µM
CCCCC1OP(=O)(OC[C@@H]2C=C[C@H](n3cc(C)c(=O)[nH]c3=O)O2)Oc2cccc(Cl)c21,-,-,-,0.2 µM
CC(C)Nc1cccnc1N1CCN(C(=O)c2cc3cc(NS(C)(=O)=O)ccc3[nH]2)CC1,IIIB,-,syncytia,0.009 µM
Cc1cc(SC2=C(O)C[C@@](CCc3ccc(N)cc3)(C(C)C)OC2=O)c(C(C)(C)C)cc1CO,IIIB,-,cytopathic effect / XTT,0.46 µM
Cc1ccnc2c1NC(=O)c1cccnc1N2C1CC1,IIIB,-,syncytia,0.03 µM
Cc1cn([C@H]2C=C[C@@H](COP3(=O)OCc4c(Cl)cccc4O3)O2)c(=O)[nH]c1=O,-,-,-,0.1 µM
Cc1ccnc2c1NC(=O)c1cccnc1N2C1CC1,-,RT-Y188H,cytopathic effect,>15 µM
O=C(O)CCNC(=O)c1ccccc1SSc1ccccc1C(=O)NCCC(=O)O,-,-,cytopathic effect / XTT,7.8 µM
O=c1[nH]c(=O)n([C@H]2CC(F)(F)[C@@H](CO)O2)cc1COCC(F)(F)F,-,-,p24,53.3 µg/mL
CC(C)(C)[Si](C)(C)OC[C@H]1O[C@@H](n2cnc3c(=O)[nH]cnc32)[C@H](O[Si](C)(C)C(C)(C)C)C12OS(=O)(=O)C=C2N,IIIB,-,syncytia,0.19 µg/mL
Cc1cn([C@H]2C[C@H](N=[N+]=[N-])[C@@H](CO)O2)c(=O)[nH]c1=O,IIIB TIBO R82913 STR-B02 (RT L100I E138K),RT-L100I E138K,syncytia,0.035 µM
CC(C)CN(C[C@@H](O)[C@H](Cc1ccccc1)NC(=O)[C@H](CC(N)=O)NC(=O)c1ccc2ccccc2n1)C(=O)NC(C)(C)C,RF,-,cytopathic effect / XTT,0.02 µM
Cc1cn([C@H]2C[C@H](N=[N+]=[N-])[C@@H](CO)O2)c(=O)[nH]c1=O,-,RT-Y188H,cytopathic effect,0.004 µM
NS(=O)(=O)c1ccc(NC(=O)c2cccc(SSc3cccc(C(=O)Nc4ccc(S(N)(=O)=O)cc4)c3)c2)cc1,-,-,cytopathic effect / XTT,>100 µM
CC(C)=CCN1Cc2cc(Cl)cc3[nH]c(=S)n(c23)C[C@@H]1C,IIIB TIBO R82913 STR-B22 (RT L100I Y188H),RT-L100I Y188H,syncytia,>5 µM
[N-]=[N+]=N[C@H]1C[C@H](n2cc(COCC(F)(F)F)c(=O)[nH]c2=O)O[C@@H]1CO,-,-,p24,1.5 µg/mL
Cc1cn([C@@H]2O[C@H](CO[Si](C)(C)C(C)(C)C)C3(OS(=O)(=O)C=C3N)[C@H]2O[Si](C)(C)C(C)(C)C)c(=O)n(C)c1=O,IIIB,-,syncytia,0.03 µM
CC(=O)c1ccc(C)cc1NC(C(N)=O)c1c(Cl)cccc1Cl,IIIB,-,syncytia,0.01 µM
CC(C)Nc1cccnc1N1CCN(C(=O)c2cc3cc(NS(C)(=O)=O)ccc3[nH]2)CC1,B-1 (RT L100V K103R/K Y188H),RT-L100V K103R/K Y188H,cytopathic effect,0.3 µg/mL
Nc1nc2c(ncn2[C@@H]2C=C[C@H](CO)O2)c(=O)[nH]1,-,-,-,18.1 µM
COC(=O)[C@H](C)OP(=O)(OC[C@@H]1C=C[C@H](n2cc(C)c(=O)[nH]c2=O)O1)Oc1ccccc1,IIIB,-,cytopathic effect,40 µM
Fc1cccc(F)c1C1SCc2nc3ccccc3n21,-,RT-Y181C,cytopathic effect,13.8 µM

A second listing of 7 rows from above:

compound | strain | changes | read by | value
Cc1cn([C@H]2C=C[C@@H](COP3(=O)OCc4ccc5ccccc5c4O3)O2)c(=O)[nH]c1=O | - | - | - | 0.11 µM
[N-]=[N+]=N[C@H]1C[C@H](n2cc(COCC(F)(F)F)c(=O)[nH]c2=O)O[C@@H]1CO | - | - | p24 | 1.5 µg/mL
Cc1cn(COC(CO)CN=[N+]=[N-])c(=O)[nH]c1=O | - | - | - | 0.05–100 µM
O=c1[nH]cnc2c1ncn2[C@H]1CC[C@@H](CO)O1 | IIIB-Nevirapine(1.0)(RT-Y181C) | RT-Y181C | syncytia | 10 µM
O=C(Nc1cc(C(F)(F)F)cc(C(F)(F)F)c1)c1ccccc1SSc1ccccc1C(=O)Nc1cc(C(F)(F)F)cc(C(F)(F)F)c1 | - | - | cytopathic effect / XTT | >3.6 µM
O=C(Nc1ccccc1O)c1ccccc1SSc1ccccc1C(=O)Nc1ccccc1O | - | - | cytopathic effect / XTT | >10 µM
NS(=O)(=O)c1ccc(NC(=O)c2cccc(SSc3cccc(C(=O)Nc4ccc(S(N)(=O)=O)cc4)c3)c2)cc1 | - | - | cytopathic effect / XTT | >100 µM